From PubChem BioAssay AID720706 (Broad Institute, 2013) come the findings set out here.

Only a part is listed here, and it is no random draw. Calls of active or inactive are those of the source.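 How the source made its calls: active means significant combined selectivity score with lowered wild-type GFP, culture density cut under 30%, mutant RFP and density less affected; inactive means any of these conditions unmet.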

The nature of this assay: reduced GFP signal of wild-type E. coli, primary screen, bacterial rRNA inhibitor project, GFP/RFP fluorescence, OD600, single point (AID 720706). To be noted: E. coli WT GFP vs humanized-ribosome RFP mutants, 24 h, active compounds read low, DMSO median 0, no signal -100.
As to `CCOC(=O)c1ccc(NP(C)(=O)Oc2ccc(OC)cc2)cc1` (stereo not drawn), the GFP signal change (wild-type ribosome) was inactive: 6.28%. The same measure for `CP(=O)(Nc1ccccn1)Oc1ccc(Cl)cc1` (stereo not drawn): inactive: 14%; for `COP1(=S)c2c(C)nn(CCC#N)c2N=C(c2ccc(F)cc2)N1C` (stereo not drawn): inactive: -1.2%; for `CP(=O)(Nc1ccc(SC(F)(F)F)cc1)Oc1ccc(Cl)cc1` (stereo not drawn): inactive: -41.9%. In the case of `CP(=O)(Oc1ccccc1)OC(c1ccccc1)C(F)(F)F` (stereo not drawn), the GFP signal change (wild-type ribosome) is inactive: 0.865%. The same measure for `COC(=O)C1(C)COP(=O)(N2CCCC2)OC1` (stereo not drawn): inactive: 5.76%; for `CP(=O)(NC(=O)Nc1ccccc1)Oc1ccccc1` (stereo not drawn): inactive: 3.82%. To `O=C(Nc1ccncc1[N+](=O)[O-])c1ccc([N+](=O)[O-])cc1[N+](=O)[O-]` belongs inactive: -2.69%. For the molecule `CCOC(=O)Nc1cccc([As](=O)(O)O)c1`, the GFP signal change (wild-type ribosome) was inactive: 30.1%.

Regarding `O=P(Nc1ccccn1)(c1cccc2ccccc12)c1cccc2ccccc12`, the GFP signal change (wild-type ribosome) was inactive: 19.2%. The same measure for `Cc1cc(SC(NC=O)C(Cl)(Cl)Cl)ncn1` (stereo not drawn): inactive: 12.1%. As to `COc1ccccc1OP(C)(=O)Nc1ccccc1` (stereo not drawn), the GFP signal change (wild-type ribosome) is inactive: 20.2%. The same measure for `CP(=O)(Nc1ccccc1Br)Oc1ccccc1` (stereo not drawn): inactive: 7.32%; for `O=[N+]([O-])c1ccc(Nc2ccc(Oc3ccc([N+](=O)[O-])cc3[N+](=O)[O-])cc2)c([N+](=O)[O-])c1`: inactive: -4.37%. Take `O=C(O)C(=O)c1ccc(N(CCCl)CCCl)cc1.c1ccc(Nc2ccccc2)cc1`: the GFP signal change (wild-type ribosome) is inactive: -3.31%. `CCOC(=O)Nc1ccc([As](=O)(O)O)c(O)c1`: the GFP signal change (wild-type ribosome) was inactive: 11.6%. To `CC1CCNP(=O)(N(CCCl)CCCl)O1` (stereo not drawn) belongs inactive: 5.81%; to `COP(=O)(OC)N1CC1c1ccccc1` (stereo not drawn), inactive: 6.8%. To `CCCCOc1ccc(C(=O)NCC2(N3CCCCC3)CCCCC2)cc1OC` belongs inactive: 3.76%.

In the case of `CN1CCCCC1COC(=O)C1(O)c2ccccc2CCc2ccccc21` (stereo not drawn), the GFP signal change (wild-type ribosome) is inactive: 3.38%.

In the case of `CCCOc1ccc(NP(C)(=O)Oc2ccc(Cl)cc2)cc1` (stereo not drawn), the GFP signal change (wild-type ribosome) is inactive: -26.3%. To `Nc1cccc([As](=O)(O)c2ccccc2)c1` belongs inactive: 8.05%; to `O=[As](O)(c1cccs1)c1cccs1`, inactive: 9.88%.

Take `NS(=O)(=O)c1cccc(NC(=O)COC(=O)C(O)(c2ccccc2)c2ccccc2)c1`: the GFP signal change (wild-type ribosome) is inactive: -4.04%. The same measure for `CC1CCC(C(C)C)C(OP(=O)(Nc2ccccn2)c2ccccc2)C1` (stereo not drawn): inactive: -47.8%; for `Cc1ccc(C(=O)OC2CN3CCC2CC3)cc1` (stereo not drawn): inactive: 19.2%. To `CN(C)C1(CNC(=O)c2ccc(S(C)(=O)=O)cc2)CCCCC1` belongs inactive: 16.8%; to `O=[N+]([O-])c1cc([N+](=O)[O-])c(Nc2nnnn2CCO)c([N+](=O)[O-])c1`, active: -21.8%; to `CCOC(=O)C(CC)C1=NC(C)(C)Cc2ccccc21.O=[N+]([O-])c1cc([N+](=O)[O-])c(O)c([N+](=O)[O-])c1` (stereo not drawn), inactive: 3.02%. As to `O=C(/C=C/c1ccccc1)OC1CN2CCC1CC2` (stereo not drawn), the GFP signal change (wild-type ribosome) is inactive: 3%. As for `CCCC1OP(=O)(Nc2ccccc2)OCC1CC` (stereo not drawn), the GFP signal change (wild-type ribosome) is inactive: 7.52%.

In the case of `COc1ccccc1CNC(=O)COC(=O)C(O)(c1ccccc1)c1ccccc1`, the GFP signal change (wild-type ribosome) is inactive: -6.89%. On to `Cc1ccc(S(=O)(=O)N(CCCN)CCCc2c(C)nc(N)[nH]c2=O)cc1.O=[N+]([O-])c1cc([N+](=O)[O-])c(O)c([N+](=O)[O-])c1`, for which the GFP signal change (wild-type ribosome) is inactive: -5.55%. As for `CN(C(=O)Cc1ccc(Cl)c(Cl)c1)[C@@H]1CCCC[C@H]1N1CCCC1`, the GFP signal change (wild-type ribosome) is inactive: 5.11%. To `CN(C(=O)Cc1ccc(Cl)c(Cl)c1)C1CCCC[C@@H]1N1CCCC1` (stereo partly drawn) belongs inactive: 6.48%; to `CCC1=CC2Cc3nc4ccc(Cl)cc4c(N)c3C(C1)C2` (stereo not drawn), inactive: -52%; to `O=C(O)C(O)c1ccc(N(CCCl)CCCl)cc1.c1ccncc1` (stereo not drawn), inactive: 7.74%. To `O=[N+]([O-])c1cc([N+](=O)[O-])c(-n2nnc3ccccc32)c([N+](=O)[O-])c1` belongs inactive: 17.2%; to `CCOP(=O)(NC(=NC(C)c1ccccc1)NC(C)c1ccccc1)OCC` (stereo not drawn), inactive: 1.74%; to `Nc1ccc(CCCCOc2ccccc2)cc1.O=[N+]([O-])c1cc([N+](=O)[O-])c(O)c([N+](=O)[O-])c1`, inactive: -17.1%. On to `CCOP(=O)(Nc1ccc(C)cn1)OCC`, for which the GFP signal change (wild-type ribosome) was inactive: 9.69%. On to `O=P1(N(CCCl)CCCl)NCCC(C(F)(F)F)O1` (stereo not drawn), for which the GFP signal change (wild-type ribosome) was inactive: 5.15%. Take `CN(Cc1cccnc1)C(=O)COc1ccc(Cl)c(Cl)c1.O=[N+]([O-])c1cc([N+](=O)[O-])c(O)c([N+](=O)[O-])c1`: the GFP signal change (wild-type ribosome) was inactive: -10.9%.

As for `CC(C)(C)C(=O)NC(Sc1ncccn1)C(Cl)(Cl)Cl` (stereo not drawn), the GFP signal change (wild-type ribosome) is inactive: 3.54%.

As for `Cc1cc(C)cc(OP(C)(=O)Nc2ccccn2)c1` (stereo not drawn), the GFP signal change (wild-type ribosome) was inactive: -1.2%.

With `CP(=O)(Nc1cccc(Br)c1)Oc1ccccc1` (stereo not drawn), the GFP signal change (wild-type ribosome) is inactive: -30%. The same measure for `Cc1ccc(NCCc2c([N+](=O)[O-])cc([N+](=O)[O-])cc2[N+](=O)[O-])cc1`: inactive: -0.0698%; for `Nc1cccc2c([As](=O)(O)O)cccc12`: inactive: 28.1%. The same measure for `CCCOP(=S)(Nc1nc(N)cc(=O)[nH]1)OCCC`: inactive: -0.267%; for `CCOP(=O)(Nc1cccc2ccccc12)OCC`: inactive: 4.42%. To `O=C(OC1CN2CCC1CC2)c1ccc(Cl)cc1` (stereo not drawn) belongs inactive: 1.89%; to `O=[As](O)(O)c1cccnc1`, inactive: 8.71%. In the case of `COc1cc(C(=O)NCC2(N3CCOCC3)CCCCC2)cc(Cl)c1OC(C)C`, the GFP signal change (wild-type ribosome) was inactive: -26.6%. As to `COc1ccccc1OP(C)(=O)Nc1cccc(Br)c1` (stereo not drawn), the GFP signal change (wild-type ribosome) is inactive: -6.5%. The same measure for `CS(=O)(=O)c1ccc(Cl)c(NC(=O)COC(=O)C(O)(c2ccccc2)c2ccccc2)c1`: inactive: -4.85%. The same measure for `O=[As](O)(c1cccc(O)c1)c1cccc(O)c1`: inactive: 7.68%; for `Cc1cc(C)cc(OP(C)(=O)Nc2ccc(C)cc2C)c1` (stereo not drawn): inactive: -0.305%; for `CCOC(=O)c1ccc(NP(C)(=O)Oc2cc(C)cc(C)c2)cc1` (stereo not drawn): inactive: 4.71%.

In the case of `NC(=O)Nc1ccc([As](=O)(O)O)cc1`, the GFP signal change (wild-type ribosome) was inactive: 24.4%. Turning to `N#CCCN(C(=O)COC(=O)C(O)(c1ccccc1)c1ccccc1)c1ccc(F)cc1`, the GFP signal change (wild-type ribosome) is inactive: 5.28%. Take `CCOP1(=S)c2c(C)nn(CCC#N)c2N=C(c2ccc(F)cc2)N1C` (stereo not drawn): the GFP signal change (wild-type ribosome) was inactive: 4.8%. The same measure for `CN(C)C(=O)c1cc([N+](=O)[O-])cc2c1-c1c(cc([N+](=O)[O-])cc1[N+](=O)[O-])C2=O`: inactive: 14.5%; for `CN(C(=O)Cc1ccc(Cl)c(Cl)c1)[C@H]1CC[C@@]2(CCCO2)C[C@@H]1N1CCCC1`: inactive: 5.79%. `CCOP1(=S)c2c(C)nn(CCC#N)c2N=C(c2ccccc2F)N1C` (stereo not drawn): the GFP signal change (wild-type ribosome) is inactive: 1.51%. `O=C(O)c1cccc(Nc2c([N+](=O)[O-])cc([N+](=O)[O-])cc2[N+](=O)[O-])c1`: the GFP signal change (wild-type ribosome) is inactive: 2.4%.

Regarding `O=P(Nc1nccs1)(Oc1ccccc1)Oc1ccccc1`, the GFP signal change (wild-type ribosome) was inactive: -5.67%.

`Nc1ccccc1[As](=O)(O)c1ccccc1`: the GFP signal change (wild-type ribosome) is inactive: 9.01%. To `O=C(O)COc1ccc([As](=O)(O)O)cc1[N+](=O)[O-]` belongs inactive: 7.25%.
